Laboratory results as given in ChEMBL document CHEMBL4811225 (J Med Chem, 2021).

Amino acid sequences for entries named in this document (tags omitted). Residues count along the entry.
UniProt P04757, 26-499 limits assumed: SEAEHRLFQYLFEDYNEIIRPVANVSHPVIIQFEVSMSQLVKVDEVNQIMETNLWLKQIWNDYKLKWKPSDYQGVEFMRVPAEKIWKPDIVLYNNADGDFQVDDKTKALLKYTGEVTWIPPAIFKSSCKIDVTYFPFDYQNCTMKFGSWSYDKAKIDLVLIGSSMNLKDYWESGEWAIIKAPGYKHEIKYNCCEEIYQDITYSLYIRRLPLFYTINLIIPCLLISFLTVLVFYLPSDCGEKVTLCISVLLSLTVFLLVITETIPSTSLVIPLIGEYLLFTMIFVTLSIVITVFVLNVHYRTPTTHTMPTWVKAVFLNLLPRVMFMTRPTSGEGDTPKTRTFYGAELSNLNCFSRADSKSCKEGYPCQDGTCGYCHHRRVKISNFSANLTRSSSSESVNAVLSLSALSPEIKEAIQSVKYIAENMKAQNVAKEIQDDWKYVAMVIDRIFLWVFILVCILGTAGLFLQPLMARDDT
UniProt P12392, 21-495 limits assumed: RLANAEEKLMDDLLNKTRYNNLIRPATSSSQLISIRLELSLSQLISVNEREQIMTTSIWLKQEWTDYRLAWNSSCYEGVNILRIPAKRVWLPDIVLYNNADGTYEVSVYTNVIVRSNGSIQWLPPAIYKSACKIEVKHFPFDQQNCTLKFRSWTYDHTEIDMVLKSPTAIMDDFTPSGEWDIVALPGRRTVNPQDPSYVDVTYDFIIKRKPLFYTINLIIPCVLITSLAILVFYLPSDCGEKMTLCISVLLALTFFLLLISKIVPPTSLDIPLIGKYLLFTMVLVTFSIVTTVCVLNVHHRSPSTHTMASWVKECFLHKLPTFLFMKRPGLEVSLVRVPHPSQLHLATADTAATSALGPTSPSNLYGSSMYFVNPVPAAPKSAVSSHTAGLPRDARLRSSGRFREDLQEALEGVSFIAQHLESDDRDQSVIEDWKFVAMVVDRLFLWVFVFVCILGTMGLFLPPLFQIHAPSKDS
UniProt P43143, 31-493 limits assumed: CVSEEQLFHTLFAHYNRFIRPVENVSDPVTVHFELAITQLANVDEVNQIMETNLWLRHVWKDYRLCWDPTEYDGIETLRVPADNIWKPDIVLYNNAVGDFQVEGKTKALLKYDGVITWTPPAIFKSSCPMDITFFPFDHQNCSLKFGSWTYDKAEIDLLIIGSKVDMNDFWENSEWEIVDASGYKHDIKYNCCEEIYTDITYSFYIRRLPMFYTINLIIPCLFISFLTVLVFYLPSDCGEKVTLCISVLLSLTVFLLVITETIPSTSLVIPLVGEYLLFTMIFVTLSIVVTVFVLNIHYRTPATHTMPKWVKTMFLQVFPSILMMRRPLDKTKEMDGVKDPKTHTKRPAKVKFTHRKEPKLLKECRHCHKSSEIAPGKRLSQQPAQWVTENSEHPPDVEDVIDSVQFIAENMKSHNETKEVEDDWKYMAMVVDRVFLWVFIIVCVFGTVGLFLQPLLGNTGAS
UniProt P30926, 22-498 limits assumed: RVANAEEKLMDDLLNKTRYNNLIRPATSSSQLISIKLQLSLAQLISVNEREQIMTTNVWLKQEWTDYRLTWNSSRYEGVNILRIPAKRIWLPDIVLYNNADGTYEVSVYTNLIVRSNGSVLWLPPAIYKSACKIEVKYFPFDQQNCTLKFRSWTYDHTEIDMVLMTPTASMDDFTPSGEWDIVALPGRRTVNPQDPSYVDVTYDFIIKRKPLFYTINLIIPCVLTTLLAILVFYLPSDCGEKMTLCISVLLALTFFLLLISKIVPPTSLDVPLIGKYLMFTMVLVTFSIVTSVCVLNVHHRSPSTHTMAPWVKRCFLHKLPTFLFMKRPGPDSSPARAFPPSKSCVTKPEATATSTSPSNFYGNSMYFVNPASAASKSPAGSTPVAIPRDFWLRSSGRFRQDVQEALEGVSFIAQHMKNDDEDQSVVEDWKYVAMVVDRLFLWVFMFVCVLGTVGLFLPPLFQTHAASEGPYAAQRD
UniProt P32297, 32-505 limits assumed: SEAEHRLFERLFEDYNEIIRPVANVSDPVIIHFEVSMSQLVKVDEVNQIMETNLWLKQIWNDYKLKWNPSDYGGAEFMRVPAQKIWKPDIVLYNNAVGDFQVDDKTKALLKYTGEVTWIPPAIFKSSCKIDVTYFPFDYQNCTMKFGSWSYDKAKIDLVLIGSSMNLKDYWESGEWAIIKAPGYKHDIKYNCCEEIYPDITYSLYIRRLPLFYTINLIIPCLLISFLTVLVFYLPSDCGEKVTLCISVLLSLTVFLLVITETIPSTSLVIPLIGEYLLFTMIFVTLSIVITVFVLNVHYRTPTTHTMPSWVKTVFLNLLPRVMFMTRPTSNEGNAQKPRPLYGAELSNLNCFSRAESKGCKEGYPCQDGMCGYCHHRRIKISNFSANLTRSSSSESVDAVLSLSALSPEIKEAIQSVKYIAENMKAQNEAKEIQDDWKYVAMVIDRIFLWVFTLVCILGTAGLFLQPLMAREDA
UniProt Q15825, 26-494 limits assumed: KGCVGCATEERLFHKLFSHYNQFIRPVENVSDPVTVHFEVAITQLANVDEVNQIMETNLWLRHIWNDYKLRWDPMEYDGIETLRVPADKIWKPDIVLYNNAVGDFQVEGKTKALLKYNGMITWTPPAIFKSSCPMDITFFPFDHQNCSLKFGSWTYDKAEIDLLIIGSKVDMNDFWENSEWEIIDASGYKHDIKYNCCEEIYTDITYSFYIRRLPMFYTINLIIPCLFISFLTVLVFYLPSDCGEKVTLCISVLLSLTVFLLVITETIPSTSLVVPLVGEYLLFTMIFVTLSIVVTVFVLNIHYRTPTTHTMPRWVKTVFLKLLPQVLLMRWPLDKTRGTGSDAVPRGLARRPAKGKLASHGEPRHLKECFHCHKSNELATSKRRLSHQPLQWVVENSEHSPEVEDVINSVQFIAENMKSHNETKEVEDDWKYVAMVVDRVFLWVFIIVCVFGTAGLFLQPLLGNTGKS

How the values were obtained:
[1] = target: Nicotinic acetylcholine receptor alpha6/alpha3/beta4 (Rattus norvegicus, UniProt P04757+P12392+P43143); settings: oocyte
[2] = target: Nicotinic acetylcholine receptor alpha6/alpha3/beta4 (Homo sapiens, UniProt P30926+P32297+Q15825); settings: oocyte

| SMILES | IC50 [1] [nM] | IC50 [2] [nM] |
| --- | --- | --- |
| CC(C)C[C@@H]1NC(=O)[C@H](CCC(=O)O)NC(=O)[C@@H]2CCCN2C(=O)[C@H](Cc2cnc[nH]2)NC(=O)[C@H](C)NC(=O)[C@H](C(C)C)NC(=O)[C@H](CO)NC(=O)[C@@H]2CSSC[C@H](NC(=O)CN)C(=O)N[C@@H](CSSC[C@@H](C(N)=O)NC1=O)C(=O)N[C@@H](CO)C(=O)N[C@@H](Cc1cnc[nH]1)C(=O)N1CCC[C@H]1C(=O)N[C@@H](C)C(=O)N2 | 56.6 | 10.7 |
| CC(C)C[C@@H]1NC(=O)[C@H](CCC(=O)O)NC(=O)[C@@H]2CCCN2C(=O)[C@H](Cc2cnc[nH]2)NC(=O)[C@H](CC(N)=O)NC(=O)[C@H](C(C)C)NC(=O)[C@H](CO)NC(=O)[C@@H]2CSSC[C@H](NC(=O)CN)C(=O)N[C@@H](CSSC[C@@H](C(N)=O)NC1=O)C(=O)N[C@@H](CC(C)C)C(=O)N[C@@H](Cc1cnc[nH]1)C(=O)N1CCC[C@H]1C(=O)N[C@@H](C)C(=O)N2 | 4150 | 86.2 |
| CC[C@H](C)[C@@H]1NC(=O)[C@H](CCC(=O)O)NC(=O)[C@@H]2CCCN2C(=O)[C@H](Cc2cnc[nH]2)NC(=O)[C@H](CCCNC(=N)N)NC(=O)[C@H](C(C)C)NC(=O)[C@H](Cc2cnc[nH]2)NC(=O)[C@@H]2CSSC[C@H](NC(=O)CN)C(=O)N[C@@H](CSSC[C@@H](C(N)=O)NC1=O)C(=O)N[C@@H](CO)C(=O)N[C@@H](Cc1cnc[nH]1)C(=O)N1CCC[C@H]1C(=O)N[C@@H](C(C)C)C(=O)N2 | 3.04 | 0.41 |
| CC[C@H](C)[C@@H]1NC(=O)[C@@H]2CSSC[C@@H](C(N)=O)NC(=O)[C@H](CC(C)C)NC(=O)[C@H](CCC(=O)O)NC(=O)[C@@H]3CCCN3C(=O)[C@H](Cc3cnc[nH]3)NC(=O)[C@H](CC(N)=O)NC(=O)[C@H](C(C)C)NC(=O)[C@H](CO)NC(=O)[C@H](CSSC[C@H](NC(=O)CN)C(=O)N2)NC(=O)[C@H](C)NC(=O)[C@@H]2CCCN2C(=O)[C@H](Cc2cnc[nH]2)NC1=O | 2150 | 36.5 |
| CC(C)C[C@@H]1NC(=O)[C@H](CCC(=O)O)NC(=O)[C@@H]2CCCN2C(=O)[C@H](Cc2cnc[nH]2)NC(=O)[C@H](CC(N)=O)NC(=O)[C@H](C(C)C)NC(=O)[C@H](CO)NC(=O)[C@@H]2CSSC[C@H](NC(=O)CN)C(=O)N[C@@H](CSSC[C@@H](C(N)=O)NC1=O)C(=O)N[C@@H](C)C(=O)N[C@@H](Cc1cnc[nH]1)C(=O)N1CCC[C@H]1C(=O)N[C@@H](C)C(=O)N2 | 175 | 22 |
| CC(C)[C@@H]1NC(=O)[C@H](CCC(=O)O)NC(=O)[C@@H]2CCCN2C(=O)[C@H](Cc2cnc[nH]2)NC(=O)[C@H](CC(N)=O)NC(=O)[C@H](C(C)C)NC(=O)[C@H](CO)NC(=O)[C@@H]2CSSC[C@H](NC(=O)CN)C(=O)N[C@@H](CSSC[C@@H](C(N)=O)NC1=O)C(=O)N[C@@H](CO)C(=O)N[C@@H](Cc1cnc[nH]1)C(=O)N1CCC[C@H]1C(=O)N[C@@H](C)C(=O)N2 | 59.8 | 5.7 |
| CC(C)C[C@@H]1NC(=O)[C@H](CCC(=O)O)NC(=O)[C@@H]2CCCN2C(=O)[C@H](Cc2cnc[nH]2)NC(=O)[C@H](CC(=O)O)NC(=O)[C@H](C(C)C)NC(=O)[C@H](CO)NC(=O)[C@@H]2CSSC[C@H](NC(=O)CN)C(=O)N[C@@H](CSSC[C@@H](C(N)=O)NC1=O)C(=O)N[C@@H](CO)C(=O)N[C@@H](Cc1cnc[nH]1)C(=O)N1CCC[C@H]1C(=O)N[C@@H](C)C(=O)N2 | 6610 | 124 |
| CC(C)C[C@@H]1NC(=O)[C@H](CCC(=O)O)NC(=O)[C@@H]2CCCN2C(=O)[C@H](Cc2cnc[nH]2)NC(=O)[C@H](CCCNC(=N)N)NC(=O)[C@H](C(C)C)NC(=O)[C@H](Cc2cnc[nH]2)NC(=O)[C@@H]2CSSC[C@H](NC(=O)CN)C(=O)N[C@@H](CSSC[C@@H](C(N)=O)NC1=O)C(=O)N[C@@H](CO)C(=O)N[C@@H](Cc1cnc[nH]1)C(=O)N1CCC[C@H]1C(=O)N[C@@H](C(C)C)C(=O)N2 | 1.73 | 0.24 |
| CC[C@H](C)[C@@H]1NC(=O)[C@H](CO)NC(=O)[C@@H]2CSSC[C@H](NC(=O)CN)C(=O)N[C@@H](CSSC[C@@H](C(N)=O)NC(=O)[C@H](CC(C)C)NC(=O)[C@H](CCC(=O)O)NC(=O)[C@@H]3CCCN3C(=O)[C@H](Cc3cnc[nH]3)NC(=O)[C@H](CC(N)=O)NC1=O)C(=O)N[C@@H](CO)C(=O)N[C@@H](Cc1cnc[nH]1)C(=O)N1CCC[C@H]1C(=O)N[C@@H](C)C(=O)N2 | 308 | 9.24 |
| CC(C)C[C@@H]1NC(=O)[C@H](CCC(=O)O)NC(=O)[C@@H]2CCCN2C(=O)[C@H](Cc2cnc[nH]2)NC(=O)[C@H](CC(N)=O)NC(=O)[C@H](C(C)C)NC(=O)[C@H](CO)NC(=O)[C@@H]2CSSC[C@H](NC(=O)CN)C(=O)N[C@@H](CSSC[C@@H](C(N)=O)NC1=O)C(=O)N[C@@H](CO)C(=O)N[C@@H](Cc1cnc[nH]1)C(=O)N[C@@H](C)C(=O)N[C@@H](C)C(=O)N2 | > 10000 | 1920 |
| CC(C)C[C@@H]1NC(=O)[C@H](CCC(=O)O)NC(=O)[C@@H]2CCCN2C(=O)[C@H](Cc2cnc[nH]2)NC(=O)[C@H](CCCCC(=O)O)NC(=O)[C@H](C(C)C)NC(=O)[C@H](CO)NC(=O)[C@@H]2CSSC[C@H](NC(=O)CN)C(=O)N[C@@H](CSSC[C@@H](C(N)=O)NC1=O)C(=O)N[C@@H](CO)C(=O)N[C@@H](Cc1cnc[nH]1)C(=O)N1CCC[C@H]1C(=O)N[C@@H](C)C(=O)N2 | 275 | 18.9 |
| CC(C)C[C@@H]1NC(=O)[C@H](CCC(=O)O)NC(=O)[C@@H]2CCCN2C(=O)[C@H](Cc2cnc[nH]2)NC(=O)[C@H](CCC(=O)O)NC(=O)[C@H](C(C)C)NC(=O)[C@H](CO)NC(=O)[C@@H]2CSSC[C@H](NC(=O)CN)C(=O)N[C@@H](CSSC[C@@H](C(N)=O)NC1=O)C(=O)N[C@@H](CO)C(=O)N[C@@H](Cc1cnc[nH]1)C(=O)N1CCC[C@H]1C(=O)N[C@@H](C)C(=O)N2 | 2340 | 70.9 |
| CC(C)C[C@@H]1NC(=O)[C@H](CCC(=O)O)NC(=O)[C@@H]2CCCN2C(=O)[C@H](Cc2cnc[nH]2)NC(=O)[C@H](CC(N)=O)NC(=O)[C@H](C(C)C)NC(=O)[C@H]([C@@H](C)O)NC(=O)[C@@H]2CSSC[C@H](NC(=O)CN)C(=O)N[C@@H](CSSC[C@@H](C(N)=O)NC1=O)C(=O)N[C@@H](CO)C(=O)N[C@@H](Cc1cnc[nH]1)C(=O)N1CCC[C@H]1C(=O)N[C@@H](C)C(=O)N2 | 94.6 | 2 |
| CC(C)[C@@H]1NC(=O)[C@H](CO)NC(=O)[C@@H]2CSSC[C@H](NC(=O)CN)C(=O)N[C@@H](CSSC[C@@H](C(N)=O)NC(=O)[C@H](C)NC(=O)[C@H](CCC(=O)O)NC(=O)[C@@H]3CCCN3C(=O)[C@H](Cc3cnc[nH]3)NC(=O)[C@H](CC(N)=O)NC1=O)C(=O)N[C@@H](CO)C(=O)N[C@@H](Cc1cnc[nH]1)C(=O)N1CCC[C@H]1C(=O)N[C@@H](C)C(=O)N2 | 237 | 89.4 |
| CC(C)C[C@@H]1NC(=O)[C@H](CCC(=O)O)NC(=O)[C@@H]2CCCN2C(=O)[C@H](Cc2cnc[nH]2)NC(=O)[C@H](CC(N)=O)NC(=O)[C@H](C(C)C)NC(=O)[C@H](C)NC(=O)[C@@H]2CSSC[C@H](NC(=O)CN)C(=O)N[C@@H](CSSC[C@@H](C(N)=O)NC1=O)C(=O)N[C@@H](CO)C(=O)N[C@@H](Cc1cnc[nH]1)C(=O)N1CCC[C@H]1C(=O)N[C@@H](C)C(=O)N2 | 399 | 60.5 |
| CC(C)C[C@@H]1NC(=O)[C@H](C)NC(=O)[C@@H]2CCCN2C(=O)[C@H](Cc2cnc[nH]2)NC(=O)[C@H](CCCNC(=N)N)NC(=O)[C@H](C)NC(=O)[C@H](CCCNC(=N)N)NC(=O)[C@@H]2CSSC[C@H](NC(=O)CN)C(=O)N[C@@H](CSSC[C@@H](C(N)=O)NC1=O)C(=O)N[C@@H](CO)C(=O)N[C@@H](Cc1cnc[nH]1)C(=O)N1CCC[C@H]1C(=O)N[C@@H](C(C)C)C(=O)N2 | 9470 | 53.2 |
| CC(C)C[C@@H]1NC(=O)[C@H](CCCNC(=N)N)NC(=O)[C@@H]2CCCN2C(=O)[C@H](Cc2cnc[nH]2)NC(=O)[C@H](CC(N)=O)NC(=O)[C@H](C(C)C)NC(=O)[C@H](CO)NC(=O)[C@@H]2CSSC[C@H](NC(=O)CN)C(=O)N[C@@H](CSSC[C@@H](C(N)=O)NC1=O)C(=O)N[C@@H](CO)C(=O)N[C@@H](Cc1cnc[nH]1)C(=O)N1CCC[C@H]1C(=O)N[C@@H](C)C(=O)N2 | 1040 | 49.4 |
| CC(C)C[C@@H]1NC(=O)[C@H](CCC(=O)O)NC(=O)[C@@H]2CCCN2C(=O)[C@H](Cc2cnc[nH]2)NC(=O)[C@H](CC(N)=O)NC(=O)[C@H](C)NC(=O)[C@H](CO)NC(=O)[C@@H]2CSSC[C@H](NC(=O)CN)C(=O)N[C@@H](CSSC[C@@H](C(N)=O)NC1=O)C(=O)N[C@@H](CO)C(=O)N[C@@H](Cc1cnc[nH]1)C(=O)N1CCC[C@H]1C(=O)N[C@@H](C)C(=O)N2 | 137 | 22.1 |
| CC(C)C[C@@H]1NC(=O)[C@H](CCC(=O)O)NC(=O)[C@@H]2CCCN2C(=O)[C@H](Cc2cnc[nH]2)NC(=O)[C@H](CC(N)=O)NC(=O)[C@H](C(C)C)NC(=O)[C@H](CC(=O)O)NC(=O)[C@@H]2CSSC[C@H](NC(=O)CN)C(=O)N[C@@H](CSSC[C@@H](C(N)=O)NC1=O)C(=O)N[C@@H](CO)C(=O)N[C@@H](Cc1cnc[nH]1)C(=O)N1CCC[C@H]1C(=O)N[C@@H](C)C(=O)N2 | > 10000 | 1410 |
| CC(C)C[C@@H]1NC(=O)[C@H](CC(N)=O)NC(=O)[C@@H]2CCCN2C(=O)[C@H](Cc2cnc[nH]2)NC(=O)[C@H](CC(N)=O)NC(=O)[C@H](C(C)C)NC(=O)[C@H](CO)NC(=O)[C@@H]2CSSC[C@H](NC(=O)CN)C(=O)N[C@@H](CSSC[C@@H](C(N)=O)NC1=O)C(=O)N[C@@H](CO)C(=O)N[C@@H](Cc1cnc[nH]1)C(=O)N1CCC[C@H]1C(=O)N[C@@H](C)C(=O)N2 | 191 | 16.2 |
| CC(C)C[C@@H]1NC(=O)[C@H](CCC(=O)O)NC(=O)[C@@H]2CCCN2C(=O)[C@H](Cc2cnc[nH]2)NC(=O)[C@H](CC(N)=O)NC(=O)[C@H](CC(C)C)NC(=O)[C@H](CO)NC(=O)[C@@H]2CSSC[C@H](NC(=O)CN)C(=O)N[C@@H](CSSC[C@@H](C(N)=O)NC1=O)C(=O)N[C@@H](CO)C(=O)N[C@@H](Cc1cnc[nH]1)C(=O)N1CCC[C@H]1C(=O)N[C@@H](C)C(=O)N2 | 63.8 | 9.64 |
